A mixed list of measured activities; the numbers were collected in NIAID ChemDB.

Shared fields: toxicity to cultured cells; endpoint: CC50

Neighbouring rows are from separate reports. CCn is the concentration with n% toxicity to the cells. An empty or dashed field is not shown. Two numbers with a dash give a range or band.

SMILES | cells | read by | result
COC1=CC(=O)c2c(cc(OC)c(C(C)C3=C(O)c4c(O)cc(O)cc4C(=O)C3=O)c2O)C1=O | BCA |  | 0.37 µg/mL
CCCCCCCCCCCCCCCCNc1ccc(C(=O)C2CC2c2ccc(Cl)cc2)cc1 | C1008 (Vero cells) |  | 235 µg/mL
CCCCCSc1nc(N)nc2c1ncn2/C=C1/C[C@@H]1CO | MEF |  | 156 µM
COc1cc(O)c2c(c1)[C@H](O)[C@@H](O)CC2=O | BCA |  | 7.24 µg/mL
N#Cc1cnn(-c2ccccc2)c1/N=c1\ssnc1Cl | K562 |  | 5 µM
Nc1nc2c(ncn2[C@@]23CO[C@@H]2[C@H](O)[C@@H](CO)O3)c(=O)[nH]1 | Zluc | resazurin | >100 µM
CC(C)CCCC(C)Nc1ccc(C(=O)C2CC2c2ccc(Cl)cc2)cc1 | C1008 (Vero cells) |  | 235 µg/mL
CCCCSc1n[nH]c(-c2ccco2)n1 | Panc-1 |  | >100 µg/mL
Nc1nc2c(ncn2COC(CO)CO)c(=O)[nH]1 | GPE |  | 700 µM
COc1ccc(CCNC(=O)CCO[Si](C)(C)C(C)(C)C)cc1OC | RAJI |  | <7.5 µM
N#Cc1ncn(CCc2ccc(Cl)cc2Cl)c1/N=c1\ssnc1Cl | K562 |  | 8 µM
Cc1ccc(O)c(C(=O)NCCN2[C@H](C)CC[C@@H]3CCCC[C@@H]32)c1 | MDCK |  | 35 µg/mL
CCOC(=O)CCCCOc1ccccc1NC(C)C | RAJI |  | >20 µM
COC1=CC(=O)c2c(cc(OC)c(C(C)C3=C(O)c4c(cc(O)c(C(C)=O)c4O)C(=O)C3=O)c2O)C1=O | BCA |  | 1.14 µg/mL
N#Cc1cnn(CCc2ccccc2)c1/N=c1\ssnc1Cl | K562 |  | 3 µM
COc1cc(OC)cc(-c2ccc(C(=O)N(Cc3cccc(OCCCCCC(=O)OC(=O)O)c3)C(C)C)cc2)c1 | BJ |  | >20 µM
O=C(Nc1ccc(-c2ccc3ncnc(Nc4ccc(N5CCOCC5)cc4)c3c2)cc1)OCc1ccccc1 | HUH 9B |  | >25 µM
O=C(O)c1cc(-c2ccco2)nc2ccccc12 | HEK 293 |  | >20 µM
CC(=O)N1C(=S)NC2=C(CCc3ccccc32)C1c1cccs1 | HUh-7 and HepG2 |  | 1788 µM
CS(=O)(=O)CCNCc1ccc(-c2ccc3ncnc(Nc4ccc(N5CCOCC5)cc4)c3c2)o1 | HUH 9B |  | 10–25 µM
CCOc1ccc(F)cc1C1(O)C(N)=Nc2ccc(Cl)cc21 | Erythrocyte |  | >125 µM
CCOC(=O)CCSc1nc(-c2cccs2)c2c(n1)-c1ccccc1CC2 | HUh-7 and HepG2 |  | 716 µM
N#Cc1cn(COC(CO)CO)c2nc(N)[nH]c(=O)c12 | ALEX |  | ~400 µM
C[C@]1(Cn2cc(CN3CCOCC3)nn2)Cn2cc([N+](=O)[O-])nc2O1 | J774 | MTT | >40 µg/mL
O=c1[nH]c(=S)ccn1[C@@H]1O[C@H](COP(=O)(O)O)[C@@H](O)[C@H]1O | MAGI | XTT | >200 µM
O=C(c1ccc(NCCO)cc1)C1CC1c1ccc(Cl)cc1 | C1008 (Vero cells) |  | 235 µg/mL
COc1cc2c(cc1OC)C(C)=NCC2 | HepG2 |  | >20 µM
OC[C@H]1O[C@@H](n2ccc3c(-c4cccc5c4oc4ccccc45)nc(Cl)nc32)C(O)C1O | MRC-5 fibroblast | MTT | 130.6 µM
C#CCSc1n[nH]c(-c2ccc([N+](=O)[O-])c(C)c2)n1 | Panc-1 |  | >100 µg/mL
OC[C@H]1O[C@@H](n2ccc3c(-c4ccco4)nc(F)nc32)C(O)C1O | CEM-DNR leukemia cells | MTT | 47.2 µM
C#CCSc1n[nH]c(-c2ccc(Cl)cc2C)n1 | THP-1 |  | >100 µg/mL
C[C@]1(Cn2cc(COc3cccc(F)c3)nn2)Cn2cc([N+](=O)[O-])nc2O1 | J774 | MTT | >40 µg/mL
OC[C@H]1O[C@@H](n2ccc3c(-c4cccs4)nc(F)nc32)C(O)C1O | K562 leukemia cells | MTT | 49.2 µM
C[C@]1(Cn2cc(COc3ccccc3F)nn2)Cn2cc([N+](=O)[O-])nc2O1 | J774 | MTT | >40 µg/mL
OC[C@H]1O[C@@H](n2ccc3c(-c4cc5ccccc5o4)nc(F)nc32)C(O)C1O | BJ fibroblasts | MTT | >150 µM
Cc1ccc(O)c(C(=O)N[C@@H]2CCC34CCC3N(Cc3ccccc3)C4C2)c1 | MDCK |  | 100 µg/mL
Cc1c2ccnc(Cl)c2cc2c3cn(C)ccc-3nc12 | HOS-/CD4+/CCR5+ |  | >1 µM
OC[C@H]1O[C@@H](n2ccc3c(-c4cc5ccccc5o4)nc(Cl)nc32)C(O)C1O | MRC-5 fibroblast | MTT | 108.6 µM
Nc1nc(NC2CC2)c2ncn(/C=C3/C[C@@H]3CO)c2n1 | BSCL-1 |  | 110 µM
CC(C)C1(O)C(N)=Nc2ccc(Cl)cc21 | Erythrocyte |  | >178 µM
C[C@@H]1CC[C@@H]2CCCC[C@@H]2N1CCNC(=O)c1cc(Cl)ccc1O | MDCK |  | 40 µg/mL
O=C(O)c1ccc(-c2ccc3ncnc(Nc4ccc(N5CCOCC5)cc4)c3c2)s1 | HUH 9B |  | >25 µM
C=CCSc1n[nH]c(-c2cccc(C(F)(F)F)c2)n1 | Panc-1 |  | >100 µg/mL
C#CCNc1nc(N)nc2c1ncn2/C=C1/C[C@@H]1CO | BSCL-1 |  | >185 µM
CC(C)c1ccc(OCc2cn(C[C@@]3(C)Cn4cc([N+](=O)[O-])nc4O3)nn2)cc1 | J774 | MTT | >40 µg/mL
NC(=S)c1nnn(Cc2ccccc2)c1N | Vero cell | MTT | 26 µM
COc1cccc(CNC(=O)c2ccc3ncnc(Nc4ccc(N5CCOCC5)cc4)c3c2)c1 | HUH 9B |  | >25 µM
CC(C)N1C2CCC23CC[C@H](NC(=O)c2cc(Cl)ccc2O)CC13 | MDCK |  | 100 µg/mL
C[C@]1(Cn2cc(-c3ccc(OC(F)(F)F)cc3)nn2)Cn2cc([N+](=O)[O-])nc2O1 | J774 | MTT | >40 µg/mL
CCSc1n[nH]c(-c2ccc(Cl)cc2C)n1 | THP-1 |  | >100 µg/mL
CN1C2CCC23CC[C@H](NC(=O)c2cc(Cl)ccc2O)CC13 | MDCK |  | 100 µg/mL
CCCCCCCCCCCCNc1ccc(C(=O)C2CC2c2ccc(Cl)cc2)cc1 | C1008 (Vero cells) |  | 235 µg/mL
c1nc(Nc2ccc(N3CCOCC3)cc2)c2cc(-c3ccc(C4OCCO4)o3)ccc2n1 | HUH 9B |  | 10–25 µM
C[C@]1(Cn2cc(-c3ccc(F)cc3)nn2)Cn2cc([N+](=O)[O-])nc2O1 | J774 | MTT | >40 µg/mL
COc1cnc(OC)c(C2(O)C(N)=Nc3ccc(Cl)cc32)c1 | Kidney epithelial cells |  | >195 µM
C[C@]1(Cn2cc(COc3ccc(C(F)(F)F)cc3)nn2)Cn2cc([N+](=O)[O-])nc2O1 | J774 | MTT | >40 µg/mL
Cc1nc(N)nc2c1ccn2[C@@H]1O[C@H](CO)C(O)C1O | CCRF-CEM leukemia cells | MTT | 26.5 µM
CCCCCCCCCCCCOS(=O)(=O)O | 1G5 |  | 829.2 µM
CCCOc1nc(N)nc2c1ncn2/C=C1/C[C@@H]1CO | BSCL-1 |  | >182 µM
CC(=O)O[C@@H]1[C@H](C)[C@@H](C)O[C@@]2([C@@H]1C)[C@@H](C)C=C(C)C(=O)[C@@H]2C | HL-60 cells | MTT | >100 µM
CCN(CC)Cc1cnc2c(C(=O)Nc3ccc4nc[nH]c4c3)cnn2c1 | 293T | MTT | >20 µM
CCOC(=O)CCCCCOc1cccc(CN(C(=O)c2ccc(-c3cccc(OC(F)(F)F)c3)cc2)C(C)C)c1 | BJ |  | >20 µM
c1coc(-c2ccc3ncnc(Nc4ccc(N5CCOCC5)cc4)c3c2)c1 | HUH 9B |  | 1–10 µM
O=C1CC[C@H](O)c2cccc(O)c21 | BCA |  | 11.27 µg/mL
CCCCCCCC/C=C\CCCCCCCCNc1ccc(C(=O)C2CC2c2ccc(Cl)cc2)cc1 | C1008 (Vero cells) |  | 431 µg/mL
O=C1/C(=C/c2cccs2)CCc2ccccc21 | Huh-7 cells and HepG2 |  | 2738 µM
Nc1nc2c(ncn2COC(CO)CO)c(=O)[nH]1 | COS 1 |  | 232 µg/mL
O=C(O)C(O)c1ccccc1 | Macrophage | MTS | >1000 µg/mL
Cn1ncc(C#N)c1/N=c1\ssnc1Cl | K562 |  | 5 µM
O=C(c1ccc(N2CCCC2)cc1)C1CC1c1ccc(Cl)cc1 | C1008 (Vero cells) |  | 235 µg/mL
CC(C)(C)n1ncc(C#N)c1/N=c1\ssnc1Cl | K562 |  | 5 µM
Nc1nc2c(ncn2COC(CO)CO)c(=O)[nH]1 | MEF |  | >359 µM

Repeating the first 10 entries:

SMILES | cells | read by | result
COC1=CC(=O)c2c(cc(OC)c(C(C)C3=C(O)c4c(O)cc(O)cc4C(=O)C3=O)c2O)C1=O | BCA |  | 0.37 µg/mL
CCCCCCCCCCCCCCCCNc1ccc(C(=O)C2CC2c2ccc(Cl)cc2)cc1 | C1008 (Vero cells) |  | 235 µg/mL
CCCCCSc1nc(N)nc2c1ncn2/C=C1/C[C@@H]1CO | MEF |  | 156 µM
COc1cc(O)c2c(c1)[C@H](O)[C@@H](O)CC2=O | BCA |  | 7.24 µg/mL
N#Cc1cnn(-c2ccccc2)c1/N=c1\ssnc1Cl | K562 |  | 5 µM
Nc1nc2c(ncn2[C@@]23CO[C@@H]2[C@H](O)[C@@H](CO)O3)c(=O)[nH]1 | Zluc | resazurin | >100 µM
CC(C)CCCC(C)Nc1ccc(C(=O)C2CC2c2ccc(Cl)cc2)cc1 | C1008 (Vero cells) |  | 235 µg/mL
CCCCSc1n[nH]c(-c2ccco2)n1 | Panc-1 |  | >100 µg/mL
Nc1nc2c(ncn2COC(CO)CO)c(=O)[nH]1 | GPE |  | 700 µM
COc1ccc(CCNC(=O)CCO[Si](C)(C)C(C)(C)C)cc1OC | RAJI |  | <7.5 µM